Results of unrelated studies side by side (data: NIAID ChemDB).

All rows: cytotoxicity tests; cell line: C8166; endpoint: CC50

CCn is the concentration with n% toxicity to the cells.

{"structure": "Nc1ncc2ncn([C@H]3CC[C@@H](CO)O3)c2n1", "result": ">1000 µM"}
{"structure": "Cc1cccc(C)c1OCC(=O)N[C@@H](Cc1ccccc1)[C@H](O)CN(CC(C)C)S(=O)(=O)c1ccc(N)cc1", "result": ">1 µM"}
{"structure": "Cc1c(N)c(C(N)=O)nn1[C@@H]1O[C@H](CO)[C@@H](O)[C@H]1O", "result": "320 µM"}
{"structure": "CCC(CC)NC(=O)C[C@@H](C(=O)NC[C@@H](O)[C@H](Cc1ccccc1)NC(=O)[C@@H](NC(=O)OCc1ccccc1)C(C)O)C(C)(C)C", "result": ">1 µM"}
{"structure": "N#Cc1cccc2c1oc1cc(F)ccc12", "result": ">200 µg/mL"}
{"structure": "Cc1cn([C@H]2C[C@H](N=[N+]=[N-])[C@@H](CO)O2)c(=O)[nH]c1=O", "result": "5 µM"}
{"structure": "NC(=O)c1nn([C@@H]2O[C@H](CO)[C@@H](O)[C@H]2O)cc1[N+](=O)[O-]", "result": "12 µM"}
{"structure": "O=C(OC1[C@H](OC(=O)c2cc(O)c(O)c(O)c2)CC(O)(C(=O)O)C[C@H]1OC(=O)c1cc(O)c(O)c(O)c1)c1cc(O)c(O)c(O)c1", "result": "15 µg/mL"}
{"structure": "O=C(O[C@@H]1Cc2c(O)cc(O)cc2O[C@@H]1c1ccc(O)c(O)c1)c1cc(O)c(O)c(O)c1", "result": ">100 µg/mL"}
{"structure": "O=c1c2cccn2c2c(F)cccc2n1CCNC(=S)Nc1ccc(Br)cn1", "result": "21 µM"}
{"structure": "O=c1c(O[C@@H]2O[C@H](CO)[C@H](O)[C@H](O)[C@H]2O)c(-c2ccc(O)c(O)c2)oc2cc(O)cc(O)c12", "result": ">100 µg/mL"}
{"structure": "CN(C)c1ccc(CNC(=O)[C@@H](NC(=O)Cc2ccccc2)[C@@H]2N[C@@H](C(=O)NC[C@@H](O)CN3C[C@H]4CCCC[C@H]4C[C@H]3C(=O)NC(C)(C)C)C(C)(C)S2)cc1", "result": ">100 µM"}
{"structure": "C[C@@H]1O[C@@H](Oc2c(-c3cc(O)c(O)c(O)c3)oc3cc(O)cc(O)c3c2=O)[C@H](O)[C@H](O)[C@H]1O", "result": ">200 µg/mL"}
{"structure": "CC1=C[C@H]([C@H](O)[C@H](C)[C@@H]2C[C@H]3O[C@]34[C@H]3CC[C@@H]5C(C)(C)O[C@H]6CC(=O)O[C@]65C[C@]3(O)CC[C@@]24C)OC1=O", "result": ">200 µg/mL"}
{"structure": "CN(N)c1ccn([C@H]2C[C@H](N=[N+]=[N-])[C@@H](CO)O2)c(=O)n1", "result": "500 µM"}
{"structure": "C[C@@H]1O[C@@H](OC[C@H]2O[C@@H](Oc3cc(O)c4c(c3)OC(c3ccc(O)cc3)CC4=O)[C@H](O)[C@@H](O)[C@@H]2O)[C@H](O)[C@H](O)[C@H]1O", "result": "16 µg/mL"}
{"structure": "O=[N+]([O-])c1ccc2oc3cc(F)ccc3c2c1", "result": ">200 µg/mL"}
{"structure": "NC(=O)c1ccn([C@@H]2O[C@H](CO)[C@@H](O)[C@H]2O)n1", "result": "900 µM"}
{"structure": "O=c1[nH]cnc2c1ncn2[C@H]1CC[C@@H](CO)O1", "result": ">250 µM"}
{"structure": "O=C(/C=C/c1ccc(O)c(O)c1)OC1[C@H](OC(=O)/C=C/c2ccc(O)c(O)c2)CC(O)(C(=O)O)C[C@H]1OC(=O)/C=C/c1ccc(O)c(O)c1", "result": "100 µg/mL"}
{"structure": "CCC(CC)NC(=O)C[C@@H](C(=O)NC[C@@H](O)[C@H](Cc1ccccc1)NC(=O)[C@H](CC(N)=O)NC(=O)c1ccc2ccccc2n1)C(C)(C)C", "result": ">1 µM"}
{"structure": "O=c1[nH]cnc2c1ncn2[C@H]1CC[C@@H](CO)O1", "result": ">967 µM"}
{"structure": "Cc1cn([C@H]2C[C@H](N=[N+]=[N-])[C@@H](CO)O2)c(=O)nc1NN(C)C", "result": ">1000 µM"}
{"structure": "O=C(/C=C/c1ccc(O)c(O)c1)O[C@H](Cc1ccc(O)c(O)c1)C(=O)O", "result": "100 µg/mL"}
{"structure": "Cc1cn([C@H]2C[C@H](N=[N+]=[N-])[C@@H](CO)O2)c(=O)[nH]c1=O", "result": ">1000 µM"}
{"structure": "CC(C)(C)NC(=O)[C@@H]1C[C@@H]2CCCC[C@@H]2CN1C[C@H](O)CNC(=O)[C@@H]1N[C@@H]([C@H](NC(=O)Cc2ccccc2)C(N)=O)SC1(C)C", "result": ">100 µM"}
{"structure": "Cc1cn([C@H]2C[C@H](N=[N+]=[N-])[C@@H](CO)O2)c(=O)nc1N(C)N", "result": "400 µM"}
{"structure": "COc1ccc([C@@H]2CC(=O)c3c(O)cc(O)cc3O2)cc1O", "result": "15 µg/mL"}
{"structure": "Cc1cccc(C)c1OCC(=O)N[C@@H](Cc1ccccc1)[C@H](O)CN1CC[C@@H](OCc2ccncc2)C[C@H]1C(=O)NC(C)(C)C", "result": ">1 µM"}
{"structure": "O=c1c2nccn2c2ccccc2n1CCNC(=S)Nc1ccc(Br)cn1", "result": "88 µM"}
{"structure": "C[C@@H]1OC(OC[C@H]2O[C@@H](Oc3cc(O)c4c(c3)OC(c3ccc(O)cc3O)CC4=O)[C@H](O)[C@@H](O)[C@@H]2O)[C@H](O)[C@H](O)[C@H]1O", "result": ">100 µg/mL"}
{"structure": "O=[N+]([O-])c1cccc2c1oc1cc(F)ccc12", "result": ">200 µg/mL"}
{"structure": "Oc1cc(O)c2c(c1)O[C@H](c1ccc(O)c(O)c1)[C@@H](O)C2", "result": ">100 µg/mL"}
{"structure": "NC(=O)c1nn([C@@H]2O[C@H](CO)[C@@H](O)[C@H]2O)cc1Br", "result": "4 µM"}
{"structure": "Nc1ncnc2c1ncn2[C@H]1CC[C@@H](CO)O1", "result": ">250 µM"}
{"structure": "CCC(CC)NC(=O)C[C@@H](C(=O)NC[C@@H](O)[C@H](Cc1ccccc1)NC(=O)[C@@H](NC(=O)c1cnc2ccccc2n1)C(C)C)C(C)(C)C", "result": ">1 µM"}
{"structure": "Cc1cccc(C)c1OCC(=O)N[C@@H](Cc1ccccc1)[C@H](O)CN1CC[C@@H](SCc2cccnc2)C[C@H]1C(=O)NC(C)(C)C", "result": ">1 µM"}
{"structure": "CCO[C@H]1C[C@H](n2cc(C)c(=O)[nH]c2=O)O[C@@H]1CO", "result": ">100 µM"}
{"structure": "CCC(CC)NC(=O)C[C@@H](C(=O)NC[C@@H](O)[C@H](Cc1ccccc1)NC(=O)[C@@H](NC(=O)c1ccc2ccccc2n1)C(C)C)C(C)(C)C", "result": ">1 µM"}
{"structure": "CC(C)(C)NC(=O)[C@@H]1C[C@@H]2CCCC[C@@H]2CN1CC(O)CNC(=O)[C@@H]1N[C@@H]([C@H](NC(=O)Cc2ccccc2)C(=O)NCCNC(=O)OC(C)(C)C)SC1(C)C", "result": ">100 µM"}
{"structure": "CCO[C@H]1C[C@H](n2cc(C)c(=O)[nH]c2=O)O[C@@H]1COP(=O)(OCC(Cl)(Cl)Cl)OCC(Cl)(Cl)Cl", "result": "150 µM"}
{"structure": "Cc1cn([C@H]2C[C@H](N=[N+]=[N-])[C@@H](CO)O2)c(=O)[nH]c1=O", "result": ">0.004 µg/mL"}
{"structure": "Cc1cn([C@H]2C[C@H](N=[N+]=[N-])[C@@H](CO)O2)c(=O)[nH]c1=O", "result": "500 µM"}
{"structure": "O=c1c2cccn2c2ncccc2n1CCNC(=S)Nc1ccc(Br)cn1", "result": "11 µM"}
{"structure": "CC(C)[C@H](NC(=O)OCc1ccccc1)C(=O)N[C@@H](Cc1ccccc1)[C@H](O)CNC(=O)[C@H](CC(=O)NC(C)(C)C)C(C)(C)C", "result": ">1 µM"}
{"structure": "O=[N+]([O-])c1ccc2oc3ccccc3c2c1", "result": ">200 µg/mL"}

Repeating the first 4 entries:

{"structure": "Nc1ncc2ncn([C@H]3CC[C@@H](CO)O3)c2n1", "result": ">1000 µM"}
{"structure": "Cc1cccc(C)c1OCC(=O)N[C@@H](Cc1ccccc1)[C@H](O)CN(CC(C)C)S(=O)(=O)c1ccc(N)cc1", "result": ">1 µM"}
{"structure": "Cc1c(N)c(C(N)=O)nn1[C@@H]1O[C@H](CO)[C@@H](O)[C@H]1O", "result": "320 µM"}
{"structure": "CCC(CC)NC(=O)C[C@@H](C(=O)NC[C@@H](O)[C@H](Cc1ccccc1)NC(=O)[C@@H](NC(=O)OCc1ccccc1)C(C)O)C(C)(C)C", "result": ">1 µM"}

Lines come from different laboratories, so protocols vary.